# PSTVd loop 6 mutant pool in Nicotiana benthamiana

Reference: Wu et al. 2024, doi:10.1371/journal.ppat.1012142.

PSTVd intermediate strain, loop 6: wild type UGACCGCGAG, pool pattern UNNNCGNNNG; upper and lower strand joined, each 5' to 3', the first 5 letters being the upper strand, closing pairs included.

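Three N. benthamiana plants were inoculated with the whole mutant pool. Samples came from the inoculated region at 5 days, the leaf margin at 10 and upper systemic leaves at 12.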

Values are reads per thousand in the sample; higher means more abundant, 0 means not found.
Each value is the mean of three plants.
"Pool" is the share in the plasmid pool used as inoculum, on the same scale.
The inoculated region was read from the minus strand, the other sites from the plus strand.
IR is the inoculated region, LM the leaf margin, Sys the systemic leaves.
For reference, wild type rose from 20.7 per thousand in the pool to 195, 198, 203 (inoculated region), 629, 591, 734 (leaf margin) and 942, 870, 868 (systemic leaves).

For UUGACGUUAG (pool 0.261) the result was IR 0.0839; LM 0.00920; Sys 0. With UAACCGGAGG (pool 0.131) the assay gave IR 0.0780; LM 0.0247; Sys 0. UAUACGUACU (pool 0.0131) read IR 0; LM 0; Sys 0. For UAGACGACAG (pool 0.209) the result was IR 0.112; LM 0.00920; Sys 0. UCCCCGAACG (pool 0.209) gave IR 0.118; LM 0.00773; Sys 0. UACACGUAAG (pool 0.0523) gave IR 0.606; LM 0.0339; Sys 0. UGAGCUGUCC (pool 0.0131) read IR 0; LM 0; Sys 0.00673.

With UCCGCGGAGG (pool 0.183) the assay gave IR 0.0721; LM 0; Sys 0. For UUUUCGCCAG (pool 0.131) the result was IR 0.0532; LM 0; Sys 0. For UUGGCGUAAG (pool 0.118) the result was IR 0.0537; LM 0; Sys 0. For UUUACGUGCG (pool 0.327) the result was IR 0.0656; LM 0.00920; Sys 0. UGGGCGCGAG (pool 0.0915) read IR 0.0775; LM 0.0360; Sys 0.00684. UCUACGUUUG (pool 0.405) gave IR 0.0533; LM 0.0276; Sys 0. UUUCCGAGGG (pool 0.248) gave IR 0.0708; LM 0; Sys 0.

UCCACGAAUG (pool 0.222) gave IR 0.0958; LM 0; Sys 0. With UCGUCGUAUG (pool 0.379) the assay gave IR 0.0777; LM 0.0920; Sys 0.00599. For UCCCCGGGAG (pool 0.327) the result was IR 0.0704; LM 0.00773; Sys 0. With UAGCCGAAAG (pool 0.183) the assay gave IR 0.0831; LM 0.0428; Sys 0. For UAAGCGCAUG (pool 0.170) the result was IR 0.0766; LM 0.0261; Sys 0. For UAUUCGGUUG (pool 0.170) the result was IR 0.0645; LM 0; Sys 0. With UUCCCGCCUG (pool 0.275) the assay gave IR 0.106; LM 0.119; Sys 0.0136.

UAAACGGUGG (pool 0.235) read IR 0.0710; LM 0.00920; Sys 0. UUGACGCAUG (pool 0.170) gave IR 0.0658; LM 0.0169; Sys 0. UUAGCGAGCG (pool 0.327) read IR 0.0953; LM 0.00920; Sys 0. With UCCUCGUGCG (pool 0.209) the assay gave IR 0.0658; LM 0.00920; Sys 0. UGGGCGGAGG (pool 0.183) read IR 0.0294; LM 0; Sys 0. For UCGACGUUCG (pool 0.235) the result was IR 0.0775; LM 0.0184; Sys 0. UCAUCGUCAG (pool 0.222) gave IR 0.0533; LM 0.00773; Sys 0.

With UUGACGGGCG (pool 0.261) the assay gave IR 0.698; LM 0.106; Sys 0. For UGUGCGAAUG (pool 0.301) the result was IR 0.138; LM 0.0261; Sys 0. UAGGCGGACG (pool 0.209) read IR 0.113; LM 0; Sys 0. With UAGUCGACCG (pool 0.196) the assay gave IR 0.0833; LM 0.0155; Sys 0. UCGUCGAUCG (pool 0.301) read IR 0.0838; LM 0.00920; Sys 0. With UCCACGAUCG (pool 0.275) the assay gave IR 0.0663; LM 0.00920; Sys 0. UUGACGAGGG (pool 0.209) read IR 0.102; LM 0; Sys 0.

With UUGUCGACCG (pool 0.261) the assay gave IR 0.0778; LM 0; Sys 0. With UUUCCGACCG (pool 0.301) the assay gave IR 0.112; LM 0.00920; Sys 0. UGAACGACUG (pool 0.235) read IR 0.132; LM 0.0169; Sys 0.

Extract of 3 entries:

For UCAUCGUCAG (pool 0.222) the result was IR 0.0533; LM 0.00773; Sys 0.
For UAGGCGGACG (pool 0.209) the result was IR 0.113; LM 0; Sys 0.
For UAUUCGGUUG (pool 0.170) the result was IR 0.0645; LM 0; Sys 0.

Sequences that differ at fixed positions probably stem from PCR or sequencing errors, and defective variants can be carried along by functional ones.
Samples held 36,220 to 57,551 reads, so the smallest values rest on one or two reads.